## Primary screen of a compound library

Source: ChEMBL document CHEMBL3988442, “University of Dundee, Small-Polar-MMV Screening Library” (2021).

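Phenotypic screen: M. tuberculosis growth, cholesterol and DPPC medium, 4 days; the read-out is not stated. Tested at 50 µM. The record gives no direction; compounds that gave an IC50 in retests scored well above the rest, so higher reads as more growth inhibition. Of about 69,000 compounds tested this way, about 370 (0.54%) reached 50% or more in at least one test.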

Each number is a percent effect as filed.
The record does not define 0% and 100%; most values in the screen are far below 50% and negative numbers occur (in some assays of this library far below -100).
This is part of a subset picked to be rich in strong results.
Two or more numbers in one place are separate tests of the same structure; such repeats can differ widely.

| structure | effect |
|---|---|
| `Cc1cccc(NCCNc2ccc(C#N)cn2)n1` | -0.889 |
| `COc1ccc(CS(=O)(=O)CC(=O)NCC2CC2)cc1F` | -7.643 |
| `CCc1ccccc1OC1CN(C(=O)c2sccc2N)C1` | 1.321 & 7.743 |
| `N#Cc1ncn(CCC(=O)Nc2ccc(Cl)cc2F)n1` | -16.45 |
| `COc1ncccc1CNC(=O)c1cnccn1` | 6.576 |
| `CC(NC(=O)CN1CCN(c2cccc(Cl)c2)CC1)c1ccco1` (centres undefined) | -6.868 |
| `CO[C@@H]1CCN(c2nnc(C)s2)C[C@@H]1Cc1cccc(C)c1.O=C(O)C(F)(F)F` | 38.09 |
| `CNc1nc(C)cc(NCc2cc(C)cc3c(C)c(C)[nH]c23)n1` | 57.81 |
| `CNS(=O)(=O)Cc1ccccc1CNc1ccc(C#N)cn1` | -45.11 |
| `O=C(CC1CCc2ccccc21)NC1(C(=O)O)CCCC1` (centres undefined) | 4.767 |
| `Cc1nnc2n1CCN(C(C(=O)NC1CC1)c1ccccc1)C2` (centres undefined) | 17.68 |
| `CN(CCO)Cc1cc(Cl)ccc1OCC(O)CN1CCCCCC1` (centres undefined) | 4.468 |
| `COc1cccc(NC(C(N)=O)c2ccc(Br)cc2)c1` (centres undefined) | -3.01 |
| `CC(C)Oc1ccc(C(=O)NCc2ccnc(N3CCCC3)c2)cn1` | 53.13 |
| `CN1CCCN(C[C@H]2C[C@H](CO)CN(Cc3cccnc3N)C2)CC1` | -52.82 |
| `CCN(CC)C(=O)CN1CCC2(C=Cc3cc(Cl)c(C)cc3O2)CC1` | 24 & 40.13 |
| `O=C(NCc1nnc2n1CCC2)N(Cc1ccc(F)cc1)C1CC1` | -4.472 |
| `Cc1ccc(N2CCCN(C(=O)CC3C=CCC3)CC2)nn1` (centres undefined) | -0.6294 |
| `Cc1ccc(S(=O)(=O)N2CCc3nc(C4CCNCC4)ncc3C2)cc1.Cl` | 16.59 |
| `Cc1nc(-c2nnc[nH]2)sc1C(=O)N1CCCC1CC(C)(C)C` (centres undefined) | -14.01 & -0.9954 |
| `O=S1(=O)CCCN1Cc1coc(-c2cccs2)n1` | -15.95 |
| `CC(O)CNc1nc(-c2cccnc2)nc2c1CCC2` (centres undefined) | 18.91 |
| `CC(C)CCN1Cc2c(C(=O)O)ncn2-c2ccccc2S1(=O)=O` | 93.66 |
| `CCOc1ccc(N2CCCN=C2NC(=O)c2cccc(OC)c2)cc1` | -33.84 |
| `O=C(c1cc2c([nH]c1=O)CCC2)N1CCCC1c1ccccc1` (centres undefined) | 83.48 |
| `NC(=O)c1cnc(NC2CCN(c3ccccc3)CC2)c(Cl)c1` | -3.351 |
| `O=C1C(n2nnc(-c3ccsc3)n2)CCN1CC(F)(F)F` (centres undefined) | 17.1 |
| `CCc1ccc(C(=O)N2CCN(Cc3ccc(F)cc3)CC2)s1` | 62.57 |
| `COc1cccnc1NC(=O)COc1ccc(F)cc1F` | 7.922 |
| `O=C1N(Cc2ccc(F)c(F)c2)CCCC12CCN(C1CCSCC1)C2` (centres undefined) | -3.542 |
| `COc1cc(C(=O)N2CC(Oc3ccccc3Cl)C2)ccn1` | 18.72 |
| `CSc1nccc(N2CCC3(CCCN(CC4CC4)C3)C2)n1` (centres undefined) | -3.435 |
| `O=C(O)C(F)(F)F.O=C(O)C(F)(F)F.[H][C@]12C[C@@H](CN3CCCC3)N(C)[C@@]1([H])CCN(C(=O)c1occc1C)C2` | -1.779 |
| `Cc1ccc(CN(CCCN(C)C)Cc2cnc(N(C)C)nc2)o1.O=C(O)CC(O)(CC(=O)O)C(=O)O` | -10.87 & -15.12 |
| `Cc1ccn(-c2ccc(NCc3ccccc3F)nn2)n1` | 2.767 & 69.47 |
| `FC1(F)CCN(Cc2cccnc2)CC12CCN(c1cnccn1)C2.O=C(O)C(F)(F)F.O=C(O)C(F)(F)F.O=C(O)C(F)(F)F` (centres undefined) | -3.338 |
| `O=c1c2sccc2nc2n1CCN(Cc1cccs1)CC2` | 5.917 |
| `Cc1cnn(CCNCc2nccn2Cc2ccccc2)c1` | 21.1 |
| `CC(NCc1ccc(OCC(N)=O)cc1)c1ccc(Cl)cc1.Cl` (centres undefined) | 5.919 |
| `CN(CCc1cccs1)CCc1nccs1` | 15.22 |
| `CC(C)N1CCCC(CN(C)c2ccc(Cn3ccnc3)cn2)C1` (centres undefined) | 4.855 & -2.069 |
| `COc1ccc(OC)c(NC(=O)c2nc3ccccc3n(C)c2=O)c1` | -4.305 |
| `O=S(=O)(NCCNc1cc(-n2cccn2)ncn1)c1cccs1` | -8.444 |
| `CCNc1cc2c(nn1)CCN(C(=O)c1cc3ccccc3[nH]c1=O)C2` | -5.39 |
| `CN1CCN(C(=O)C2(S(C)(=O)=O)CCCC2)Cc2ccccc21` | 12.01 |
| `[H][C@]12CC[C@]([H])(CN(Cc3ccccn3)C1)N(C(=O)c1cc(C(C)C)on1)C2` | -10.45 |
| `COc1ccc(CN2CC[C@H](O)[C@@H]2Cc2cnn(C)c2)cc1.O=C(O)C(F)(F)F` | -14.55 & -9.204 |
| `CC(C)CCC(=O)NCCc1ccn(-c2ccccc2)n1` | 36.24 |
| `O=C(c1c(F)cccc1F)N1CCOCC1` | 29.78 |
| `c1cncc(-c2ccc3c(c2)C2(CCNCC2)CC3)c1` | -45.13 |
| `COC(=O)c1ccc(C(=O)NCc2ccco2)nc1` | -28.88 |
| `O=C(CCC(F)(F)F)N1CCCC(CO)(CC2CC2)C1` (centres undefined) | 51.76 |
| `COc1cccc(C(CO)NC(=O)Cc2ccc(F)c(Br)c2)c1` (centres undefined) | 8.311 & 56.06 |
| `Cc1cnn(C2CN(Cc3noc(C4CC4)n3)C2)c1` | 3.343 |
| `CC(C)N(CCNC(=O)c1[nH]nc2ccc(I)cc12)C(C)C` | 80.96 |
| `O=C(c1cccs1)N1CC(Oc2ccccc2Cl)C1` | 47.33 & 49.13 |
| `Cl.Fc1ccc(Cc2cnc(C3CCCN3)cn2)cc1` (centres undefined) | -15.75 |
| `COc1ccc(C(=O)Nc2c(C(=O)N(C)C)nn(C)c2C)cc1` | -10.18 |
| `Cc1nn(CC(O)CN2CCc3ccccc3C2)c(=O)c2ccccc12` (centres undefined) | 5.942 |
| `CC(CCNC(=O)N1CCC1)N(C)C(=O)OC(C)(C)C` (centres undefined) | -0.394 |
| `CC(C)=CCN1CCc2onc(-c3ccc(F)c(F)c3)c2C1` | -16.16 |
| `c1ccc(Oc2ccc(OC34CCCN(CC3)C4)cc2)cc1` (centres undefined) | 58.08 |
| `Cc1ccoc1C(=O)N1CCC(n2cc(-c3ccsc3)nn2)CC1` | 69.42 |
| `Cc1cc(NC(=O)C(C)Oc2ccc3c(c2)OCO3)no1` (centres undefined) | -8.592 |
| `O=C(Nc1nc(-c2ccccc2)ns1)N1CCC(F)CC1` | -0.2147 & -19.67 |
| `Cc1nn2c(NCC(=O)NC3CC3)cc(-c3ccccc3)nc2c1C` | 58.28 & 47.02 |
| `CS(=O)(=O)N1CCOCC2(CN(Cc3ccsc3)CCO2)C1.O=C(O)C(F)(F)F` (centres undefined) | 5.905 |
| `Cc1ccccc1CN1CCC(c2nn(CCN)c3nccnc23)C1` (centres undefined) | 2.106 |
| `CCn1ccc(-c2cc(NCCCOc3cccc(C)c3)nc(C)n2)n1` | 74.82 |
| `COC(=O)c1ccc(/C=C/c2ncc(C(=O)O)s2)cc1` | -16.35 |
| `Cc1cnn(CCNCc2nccn2CC(F)(F)F)c1` | 20.12 |
| `Cc1c(Br)cccc1CSc1nnc(CO)n1C` | -6.73 |
| `COc1ccc2nnc(C(=O)NCC3CCCC3)nc2c1` | 31.88 |
| `O=C(O)C(F)(F)F.OCCN1CCC2(CCc3cc(-c4ccoc4)ccc32)CC1` | 23.5 |
| `[H][C@@]12CC[C@H](Oc3ccccc3Cl)[C@]1([H])CN(C(=O)CNC(C)=O)C2` | 55.34 |
| `Cc1cc(CNc2cncc(C(=O)N(C)C)n2)c2[nH]c(C)c(C)c2c1` | 3.377 |
| `Cc1cccc(C(=O)NCc2ccccc2)n1` | 32.75 |
| `O=C(c1ccc(Br)s1)N1CCN(Cc2ccc(OC(F)(F)F)cc2)CC1` | 26.18 |
| `CC(C)CCn1ccc(NC(=O)N2CCCC2C(C)(C)O)n1` (centres undefined) | 1.299 |
| `COc1ccc(C[C@H]2CN(C(=O)c3ncccn3)CC[C@@H]2OC)cc1` | 9.62 |
| `CC(C)(C)Cc1nnc(NCc2ccsc2)o1` | 54.09 |
| `Cc1nc(N2CCCC2)nc2c1CCN(Cc1ccsc1)CC2.O=C(O)C(F)(F)F` | 92.27 & 82.92 |
| `CC(C)NC(=O)Cn1cc(-c2ccccc2)cn1` | 15.53 |
| `CC(=O)N1CC(c2ncn(C(C)C)n2)c2cc(C(=O)NC(C)C)ccc21` (centres undefined) | -5.625 & 26.4 |
| `Cc1nsc(C(=O)NCCc2ccc(S(N)(=O)=O)cc2)n1` | 2.64 |
| `Cc1nc(N2CC[C@@H](c3ccc4ccccc4c3)[C@H](O)C2)no1` | 6.429 |
| `FC(F)(F)Oc1cccc(CNCc2ccc(-n3cncn3)nc2)c1` | 26.37 |
| `O=C(O)C(F)(F)F.[H][C@@]12CN(CC)C[C@]1([H])[C@@H](OC)CCN2C(=O)Cc1ccsc1` | 64.6 |
| `Cc1cc(-c2c[nH]nc2C2CCCCN2C(=O)c2ccccc2)on1` (centres undefined) | 0.6259 |
| `Cc1n[nH]c(C)c1CCNC(=O)C1CCCN(CC(N)=O)C1` (centres undefined) | 20.47 |
| `CN(C)C(=O)c1cc(-c2cnc(N)nc2)nc2cc(F)ccc12` | 15.09 |
| `CCc1nc(C2CCCN2C(=O)CCCOc2cccc(F)c2)no1` (centres undefined) | 81.2 & -9.641 |
| `CN1CCC(CNC(=O)CCSc2ccc3c(c2)OCCO3)C1` (centres undefined) | 24.86 |
| `CCCNC(=O)Cn1cc(-c2ccccc2)cn1` | -12.1 |

For reference, 9 entries once more:

{"structure": "CCc1ccccc1OC1CN(C(=O)c2sccc2N)C1", "effect": "1.321 & 7.743"}
{"structure": "COc1ccc(CS(=O)(=O)CC(=O)NCC2CC2)cc1F", "effect": -7.643}
{"structure": "Cc1cnn(CCNCc2nccn2Cc2ccccc2)c1", "effect": 21.1}
{"structure": "COc1ccc(C[C@H]2CN(C(=O)c3ncccn3)CC[C@@H]2OC)cc1", "effect": 9.62}
{"structure": "CO[C@@H]1CCN(c2nnc(C)s2)C[C@@H]1Cc1cccc(C)c1.O=C(O)C(F)(F)F", "effect": 38.09}
{"structure": "Cc1cc(NC(=O)C(C)Oc2ccc3c(c2)OCO3)no1", "stereo": "centres undefined", "effect": -8.592}
{"structure": "CC(C)CCn1ccc(NC(=O)N2CCCC2C(C)(C)O)n1", "stereo": "centres undefined", "effect": 1.299}
{"structure": "Cc1nc(N2CCCC2)nc2c1CCN(Cc1ccsc1)CC2.O=C(O)C(F)(F)F", "effect": "92.27 & 82.92"}
{"structure": "Cc1ccn(-c2ccc(NCc3ccccc3F)nn2)n1", "effect": "2.767 & 69.47"}